Compound potency records, mixed from different reports. Data source: NIAID ChemDB in PubChem.

All rows: enzyme or target tests; agent: Hepatitis C virus; target: NS3 protease

a–b is a range or a potency band.

structure	endpoint	result
CSCC[C@H](NC(=O)[C@H](CCC(=O)O)NC(=O)[C@@H](N)CC(=O)O)C(=O)N[C@@H](CCC(=O)O)C(=O)N[C@@H](CCC(=O)O)C(=O)N[C@H](CS)C(=O)O	IC50	4 µM
CCC[C@H](NC(=O)[C@H](Cc1ccc2ccccc2c1)NC(=O)[C@H](CCC(=O)O)NC(=O)[C@@H](NC(=O)CCC(=O)O)C1CCCCC1)C(=O)NS(=O)(=O)C(C)C	Ki	12 µM
CC[C@@H](C=O)NC(=O)[C@@H]1C[C@@H](OCc2ccccc2)CN1C(=O)[C@@H](NC(=O)c1c(-c2c(Cl)cccc2Cl)noc1C)C(C)C	Ki	>100 µM
COc1ccc2c(OC3CC(C(=O)NC4(C(=O)O)CC4)N(C(=O)[C@@H](NC(=O)OC(C)(C)C)C(C)C)C3)cc(-c3ccccc3)nc2c1	Ki	0.32 µM
CC[C@@H](C=O)NC(=O)[C@@H]1C[C@@H](NC(=O)N2CCOCC2)CN1C(=O)[C@@H](NC(=O)[C@@H](NC(=O)c1cnccn1)C(C)C)C(C)C	Ki	1–100 µM
CSCC[C@H](NC(=O)[C@H](CCC(=O)O)NC(=O)[C@@H](N)CC(=O)O)C(=O)N[C@@H](CCC(=O)O)C(=O)N[C@@H](CC(C)C)C(=O)N[C@@H](CS)C(=O)O	IC50	1.1 µM
CCC[C@H](NC(=O)[C@H](CC1CCCCC1)NC(=O)[C@@H](NC(=O)[C@@H](NC(=O)CCC(=O)O)C1CCCCC1)C(C)CC)C(=O)NS(=O)(=O)C(C)C	Ki	9.7 µM
CC[C@H](NC(=O)[C@H](CC(C)C)NC(=O)[C@@H](NC(=O)[C@@H](NC(=O)[C@H](CC(=O)O)CC(=O)[C@H](CCC(=O)O)NC(C)=O)C(C)C)C(C)C)C(=O)C(=O)NCc1ccccc1OC	Ki	<1 µM
CCC[C@H](NC(=O)C1CC(Oc2cc(-c3ccccc3)nc3cc(OC)ccc23)CN1C(=O)[C@@H](NC(=O)OC(C)(C)C)C(C)C)C(=O)N(C)S(=O)(=O)c1ccccc1	Ki	3.7 µM
N[C@@H](CC(=O)O)C(=O)N[C@@H](CCC(=O)O)C(=O)N[C@@H](Cc1ccccc1)C(=O)N[C@@H](CCC(=O)O)C(=O)N[C@@H](CC1CCCCC1)C(=O)N[C@@H](CS)C(=O)O	IC50	0.42 µM
CCC[C@H](NC(=O)C1CC(Oc2cc(-c3ccccc3)nc3cc(OC)ccc23)CN1C(=O)[C@@H](NC(=O)OC(C)(C)C)C(C)C)C(=O)NCc1ccccc1	Ki	5.2 µM
CC[C@H](C)[C@H](NC(=O)[C@@H](NC(=O)[C@@H](N)CCC(=O)O)C(c1ccccc1)c1ccccc1)C(=O)N[C@@H](CC1CCCCC1)C(=O)N[C@@H](CS)C(=O)O	IC50	2.5 µM
CC[C@H](C)[C@H](NC(=O)[C@H](CC(=O)O)NC(=O)[C@@H](N)CC(=O)O)C(=O)N[C@H](C(=O)N1CCC[C@H]1C(=O)N[C@@H](CS)C(=O)O)C(C)C	Ki	79 µM
C=C/C=C(Cl)\C=C/CC[C@H](NC(=O)[C@H](CCC(=O)O)NC(=O)[C@@H](N)CC(=O)O)C(=O)N[C@@H](CCC(=O)O)C(=O)N[C@@H](CC1CCCCC1)C(=O)N[C@@H](CS)C(=O)O	IC50	0.3 µM
CC[C@H](NC(=O)[C@@H]1C[C@@H](OCc2ccccc2)CN1C(=O)[C@@H](NC(=O)[C@@H](NC(=O)c1cnccn1)C(C)C)C(C)C)P(=O)(Oc1ccccc1)Oc1ccccc1	Ki	1–100 µM

The last 2 rows once more:

structure	endpoint	result
C=C/C=C(Cl)\C=C/CC[C@H](NC(=O)[C@H](CCC(=O)O)NC(=O)[C@@H](N)CC(=O)O)C(=O)N[C@@H](CCC(=O)O)C(=O)N[C@@H](CC1CCCCC1)C(=O)N[C@@H](CS)C(=O)O	IC50	0.3 µM
CC[C@H](NC(=O)[C@@H]1C[C@@H](OCc2ccccc2)CN1C(=O)[C@@H](NC(=O)[C@@H](NC(=O)c1cnccn1)C(C)C)C(C)C)P(=O)(Oc1ccccc1)Oc1ccccc1	Ki	1–100 µM

Conditions beyond the fields shown may differ between rows. ICn: concentration for n% inhibition.